Measurements published in patent publication US20240199725A1 (KOREA UNIVERSITY RESEARCH AND BUSINESS FOUNDATION, published 2024).

Target: T1, COVID-19-RBD-GST (SARS-CoV-2 (COVID-19 virus), wild type)
T1 construct: also called dimeric RBD fused with a GST tag; COVID-19-RBD-GST-Alexa488 probe
Assay: flow cytometry, variant on spheroplasts, 50 nM COVID-19 RBD-Alexa 488 antigen

B1: VH variant JS-VH 4 (other)
VH: QVQLQESGGGVVQPGESLRLSCAASGFTFEDYAMHWVRQPPGKGLEWVSLISGDGFFTHYADSVEGRFTVSRDNSKNSLYLQMNSLRAEDTAVYYCARDSFGGHLDLWGQGTLVTVSS
B1: binds.
